Measured values taken from article PMC5056392, “CD4-mimetic sulfopeptide conjugates display sub-nanomolar anti-HIV-1 activity and protect macaques against a SHIV162P3 vaginal challenge” (Scientific Reports, 2016).

What was measured:
[1] = tested on: HIV-1 Bal; format: cell-based; conditions: Table 1; B-R5; TZM-bl cells, 48 h, luciferase; means of two experiments
Method in brief: (§1)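 TZM-bl cells (CD4/CCR5/CXCR4, HIV LTR-luciferase reporter) with 30 μg/mL DEAE dextran were preincubated with 10-fold serial dilutions of mCD4 conjugates, then infected with 50, 100 or 200 TCID50 virus. After 48 h at 37 °C, luciferase RLU were expressed as percent of compound-free infected wells, and IC50 was derived by non-linear regression.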

[2] = tested on: HIV-1 Ca10-3 (CRF01); format: cell-based; conditions: Table 1; AE-X4; TZM-bl cells, 48 h, luciferase; means of two experiments
[3] = tested on: HIV-1 IIIB; format: cell-based; conditions: Table 1; B-X4; TZM-bl cells, 48 h, luciferase; means of two experiments
Method in brief: as §1

[4] = tested on: HIV-1 MP568 (CRF02); format: cell-based; conditions: Table 1; AG-R5; TZM-bl cells, 48 h, luciferase; means of two experiments
[5] = tested on: HIV-1 SF162; format: cell-based; conditions: Table 1; B-R5; TZM-bl cells, 48 h, luciferase; means of two experiments
Method in brief: as §1

[6] = tested on: HIV-1 VI1888 (CRF01); format: cell-based; conditions: Table 1; AE-R5; TZM-bl cells, 48 h, luciferase; means of two experiments
[7] = tested on: HIV-1 VI820; format: cell-based; conditions: Table 1; A-X4R5; TZM-bl cells, 48 h, luciferase; means of two experiments
Method in brief: as §1

[8] = tested on: HIV-1 VI824; format: cell-based; conditions: Table 1; D-R5; TZM-bl cells, 48 h, luciferase; means of two experiments
[9] = tested on: HIV-1 VI829; format: cell-based; conditions: Table 1; C-R5; TZM-bl cells, 48 h, luciferase; means of two experiments
Method in brief: as §1

[10] = tested on: HIV-1 p246F10; format: cell-based; conditions: Table 1; T/F C-R5; TZM-bl cells, 48 h, luciferase; means of two experiments
[11] = tested on: HIV-1 pTHRO.c/2626; format: cell-based; conditions: Table 1; T/F B-R5; TZM-bl cells, 48 h, luciferase; means of two experiments
[12] = tested on: HIV-1 pWITO.c/2474; format: cell-based; conditions: Table 1; T/F B-R5; TZM-bl cells, 48 h, luciferase; means of two experiments
[13] = tested on: HIV-1 pZM247Fv2; format: cell-based; conditions: Table 1; T/F C-R5; TZM-bl cells, 48 h, luciferase; means of two experiments
[14] = tested on: SHIV162P3; format: cell-based, SHIV; conditions: Table 1; B-R5; TZM-bl cells, 48 h, luciferase; means of two experiments
Method in brief: as §1

[15] = Storage stability in HEC gel; format: physicochemical; conditions: formulated in HEC gel, stored at −20 °C; data not shown
[16] = tested on: HIV-1 NL4.3; format: cell-based; conditions: primary CD4 T cells infected with NL4.3, co-culture with autologous target cells, Gag+ targets by flow cytometry

CC(C)C[C@@H]1NC(=O)CNC(=O)[C@H](CC(C)C)NC(=O)[C@H](CO)NC(=O)[C@H](CO)NC(=O)[C@@H]2CSSC[C@@H](C(=O)N[C@H](C(N)=O)C(C)C)NC(=O)[C@H](C)NC(=O)[C@@H]3CSSC[C@H](NC(=O)[C@H](CCCCNC(=O)CCOCCOCCNC(=O)CCN4C(=O)CC(SCCC(=O)NCCCC(=O)N[C@@H](CO)C(=O)N[C@@H](Cc5ccc(OS(=O)(=O)O)cc5)C(=O)N[C@@H](CC(=O)O)C(=O)N[C@@H](Cc5ccc(OS(=O)(=O)O)cc5)C(=O)N[C@@H](CO)C(=O)N[C@@H](Cc5ccc(OS(=O)(=O)O)cc5)C(=O)N[C@@H](CC(=O)O)C(=O)N[C@@H](Cc5ccc(OS(=O)(=O)O)cc5)C(=O)N[C@@H](CO)C(=O)N[C@@H](Cc5ccc(OS(=O)(=O)O)cc5)C(=O)N[C@@H](CC(=O)O)C(=O)N[C@@H](Cc5ccc(OS(=O)(=O)O)cc5)C(=O)N[C@@H](CO)C(=O)O)C4=O)NC(=O)[C@H](Cc4c[nH]cn4)NC(=O)[C@H](CC(C)C)NC(=O)[C@H](CC(N)=O)NC(=O)CCSSC[C@H](NC(=O)[C@H](CCCNC(=N)N)NC(=O)CNC(=O)[C@H](CC(C)C)NC1=O)C(=O)N[C@@H](C)C(=O)NCC(=O)N[C@@H](CO)C(=O)N[C@@H](Cc1ccc(-c4ccccc4)cc1)C(=O)N3)C(=O)N[C@@H](CCC(N)=O)C(=O)N[C@@H](CC(C)C)C(=O)N[C@@H](CCCNC(=N)N)C(=O)N2 (some centres unmarked) [mCD4.1-PS1]
IC50 [1]: 0.54 nM | IC50 [2]: 0.57 nM | IC50 [3]: 0.013 nM | IC50 [4]: 310 nM | IC50 [5]: 0.11 nM | IC50 [6]: 1100 nM | IC50 [7]: 25 nM | IC50 [8]: 40 nM | IC50 [9]: 16 nM | IC50 [10]: 723 nM | IC50 [11]: 91 nM | IC50 [12]: 6.9 nM | IC50 [13]: 3700 nM | IC50 [14]: 36 nM | stability on storage in HEC gel [15]: stable for one year | IC50 ([16]; 48 h, read-out: IC50 (nM) 48h, cell-cell transmission): 0.2 nM | IC50 ([16]; 72 h, read-out: IC50 (nM) 72h, cell-cell transmission): 0.2 nM

Read-outs that look alike come from different tables or passages of the source.
